In patent US11578091B2, “Process for the manufacture of maltosyl-isomaltooligosaccharides (MIMO)” (ISOThrive LLC, priority 2017, dated 2023):

Tested on: extracellular hydrolytic enzyme
Experiment: Hydrolysis of MIMO by DP during fermentation with NRRL B-742 (HPAEC-PAD)
Design: species or system Leuconostoc citreum NRRL B-742
Conditions: for susceptibility to hydrolysis relative to DP 5: relative to quantity at 17 hours, trial #5; for susceptibility to hydrolysis during fermentation (in words): fermentation broth, L. citreum NRRL B-742, pH 5.5, 27° C.

What does the source list for `OC[C@H]1O[C@H](OC[C@H]2O[C@H](O[C@H]3[C@H](O)[C@@H](O)C(O)O[C@@H]3CO)[C@H](O)[C@@H](O)[C@@H]2O)[C@H](O)[C@@H](O)[C@@H]1O` (stereo partly shown) [DP 3, panose]?
susceptibility to hydrolysis relative to DP 5 (at 24 hours of fermentation): 4.89; susceptibility to hydrolysis relative to DP 5 (at 42 hours of fermentation): 160.6; susceptibility to hydrolysis during fermentation (in words): destroyed relatively quickly

Which “susceptibility to hydrolysis during fermentation (in words)” value does the source give for `OC[C@H]1O[C@H](OC[C@H]2O[C@H](OC[C@H]3O[C@H](OC[C@H]4O[C@H](O[C@H]5[C@H](O)[C@@H](O)[C@@H](O)O[C@@H]5CO)[C@H](O)[C@@H](O)[C@@H]4O)[C@H](O)[C@@H](O)[C@@H]3O)[C@H](O)[C@@H](O)[C@@H]2O)[C@H](O)[C@@H](O)[C@@H]1O` [DP 5] here?
Its value is “little or no change”.
